Assay results: paper PMC8619593 (Pharmaceuticals, 2021)

Tested on: SARS-CoV-2
Assay: Viral RNA reduction assay (ddPCR) in Vero E6 cells, MOI 0.01
Conditions: calculated from RNA reduction EC50 values

## teicoplanin [Compound 3, reference compound]
  Therapeutic Index CC50/EC50: >17.9
